Assay results: patent US20260078171A1
Where two headings read alike, the source gives them in different places.

What was measured:
Assay in all cases: cell-based or functional assay
[1] = target: SARS-CoV-2 Omicron BA.4.6 spike protein, Monogram pseudovirus (SARS-CoV-2)
[2] = target: SARS-CoV-2 Omicron BA.4/5 spike protein, Monogram pseudovirus (SARS-CoV-2)
[3] = target: SARS-CoV-2 Omicron BF.7 spike protein, Monogram pseudovirus (SARS-CoV-2)
[4] = target: SARS-CoV-2 Omicron BQ.1 spike protein, Monogram pseudovirus (SARS-CoV-2)
[5] = target: SARS-CoV-2 Delta spike protein (authentic virus / MLV pseudovirus) (SARS-CoV-2)
[6] = target: SARS-CoV-2 Omicron BA.1 spike protein (authentic virus / MLV pseudovirus) (SARS-CoV-2)
[7] = target: SARS-CoV-2 Omicron BA.2 spike protein (authentic virus / MLV pseudovirus) (SARS-CoV-2)
[8] = target: SARS-CoV-2 Omicron BA.4.1 spike protein (authentic virus) (SARS-CoV-2)
[9] = target: SARS-CoV-2 Wild-type (D614G) spike glycoprotein (SARS-CoV-2) (UniProt P0DTC2)
[10] = target: SARS-CoV-2 Omicron BA.1 spike protein, Monogram pseudovirus (SARS-CoV-2)
[11] = target: SARS-CoV-2 Omicron BA.2.75 spike glycoprotein (lentivirus-based pseudovirus) (SARS-CoV-2)
[12] = target: SARS-CoV-2 Omicron BA.5 spike glycoprotein (lentivirus-based pseudovirus) (SARS-CoV-2)
[13] = target: SARS-CoV-2 Omicron BQ.1.1 spike protein, Monogram pseudovirus (SARS-CoV-2)
[14] = target: SARS-CoV-2 Wild-type (D614G) spike glycoprotein (SARS-CoV-2) (UniProt P0DTC2); remark: listed apart in the source

Substance	IC50, PhenoSense pseudovirus neutralization [1] [µg/mL]	IC50, PhenoSense pseudovirus neutralization [2] [µg/mL]	IC50, PhenoSense pseudovirus neutralization [3] [µg/mL]	IC50, PhenoSense pseudovirus neutralization [4] [µg/mL]	IC50 fold-change relative to D614G reference strain [5] [fold]	IC90 fold-change relative to D614G reference strain [5] [fold]	IC50 fold-change relative to D614G reference strain [6] [fold]	IC90 fold-change relative to D614G reference strain [6] [fold]	IC50 fold-change relative to D614G reference strain [7] [fold]	IC90 fold-change relative to D614G reference strain [7] [fold]	IC50 fold-change relative to D614G reference strain [8] [fold]	IC90 fold-change relative to D614G reference strain [8] [fold]	IC50 fold-change relative to D614G reference strain [9] [fold]	IC90 fold-change relative to D614G reference strain [9] [fold]	IC50, PhenoSense pseudovirus neutralization [10] [µg/mL]	IC50 fold-change relative to D614G reference strain [11] [fold]	IC50 fold-change relative to D614G reference strain [12] [fold]	IC50, PhenoSense pseudovirus neutralization [13] [µg/mL]	IC50 fold-change relative to D614G reference strain [14] [fold]
VYD222 (antibody)	0.0292	0.0297	0.0727	0.165	–	–	–	–	–	–	–	–	–	–	–	–	–	–	–
LY-CoV1404 (antibody)	–	–	–	–	1.28	1.07	0.18	1.68	0.48	0.77	1.22	1.11	1	1	–	–	–	–	–
VYD223 (antibody)	–	–	–	–	1.12	4.35	1.26	4.91	1.39	6.12	5.35	31.7	1	1	–	–	–	–	–
ADI-58125 (antibody)	–	–	–	–	0.95	0.81	> 97	> 26	> 97	> 26	> 97	> 26	1	1	–	–	–	–	–
VYD224 (antibody)	0.267	0.4	0.281	0.44	0.58	0.38	0.95	0.61	1.56	1.45	12.1	9.67	1	1	0.0013	0.3	2.7	0.809	1
